Measured values from several laboratories, pooled; numbers as filed in NIAID ChemDB.

Shared fields: whole-cell or culture tests; agent: Mycobacterium tuberculosis

MIC bound comes from a single tested concentration. Percent inhibition refers to the dose given; in toxicity tests it is the harm to the cells. ECn is the concentration giving n% inhibition of infection, replication or growth. Neighbouring rows are from separate reports. A number after MIC or MFC names an inhibition level or a share of isolates. An empty or dashed field is not shown.

SMILES,read-out,strain or isolate,read by,dose,result
c1ccc(C(CNCCNC23CC4CC(CC(C4)C2)C3)c2ccccc2)cc1,MIC,,,,37.5 µM
Cn1c(=O)c(N=Nc2ccc(Cl)c(Cl)c2)c(O)c2ccccc21,inhibition,H37Rv,resazurin,6.25 µg/mL,10%
CCOC(=O)C1=NN(c2ccccc2)C(=O)C1N=Nc1ccc(S(=O)(=O)Nc2nnc(C)s2)cc1,MIC,H37Rv,BACTEC,,≥12.8 µg/mL
COc1ccc(N=Nc2c(O)c3ccc(Cl)c(Cl)c3[nH]c2=O)cc1,MIC,H37Rv,resazurin,,>6.25 µg/mL
Cc1cc2c(cc1Cl)SC(NNc1ccc([N+](=O)[O-])cc1)=NS2(=O)=O,MIC bound,H37Rv,resazurin,,>6.25 µg/mL
CC(NCCNCCc1ccccc1F)c1cccc2ccccc12,MIC,,,,25 µM
CCCCCCCCCCCNCCNC1CCC1,MIC,,,,50 µM
O=c1oc2ccccc2cc1-c1cs/c(=N\N=C\c2cc(Br)ccc2O)n1-c1ccccc1,inhibition,H37Rv,,12.5 µg/mL,0%
COc1ccc(Sc2nc(Cl)nc3nc[nH]c23)cc1OC,MIC90,H37Rv,,,>6.25 µg/mL
O=c1[nH]c2c([N+](=O)[O-])cccc2c(O)c1N=Nc1ccccc1-c1ccccc1,MIC,H37Rv,resazurin,,>6.25 µg/mL
CCO/C=N/NC(=O)c1n[nH]c2ccccc12,inhibition,H37Rv,BACTEC,12.5 µg/mL,16%
Brc1ccccc1-c1nnc2sc(-c3ccncc3)nn12,MIC,Clinical isolate,resazurin,,8 µg/mL
CC[C@@H](CO)NCCN[C@@H](CC)CO,MIC,90-0233 (INH SM-RS),,,1 µg/mL
COc1ccc(N=Nc2c(O)c3cccc([N+](=O)[O-])c3[nH]c2=O)cc1,MIC,H37Rv,resazurin,,>6.25 µg/mL
CO[C@H]1/C=C/O[C@@]2(C)Oc3c(C)c(O)c4c(O)c(c5c(c4c3C2=O)NC2(CCN(CC(C)C)CC2)N=5)=NC(=O)/C(C)=C\C=C\[C@H](C)[C@H](O)[C@@H](C)[C@@H](O)[C@@H](C)[C@H](OC(C)=O)[C@@H]1C,MIC,TBSMI-1 (rifampin-susceptible),,,<0.5 µg/mL
Fc1ccccc1CNCCNCc1ccco1,MIC,,,,50 µM
Cc1cc(N=Nc2ccc(-c3ccc(N=Nc4ccc(O)c(C(=O)O)c4)cc3)cc2)c(N)c(N=Nc2ccc(C(=O)Nc3ccc(S(=O)(=O)O)cc3)cc2)c1N,MIC bound,H37Rv,BACTEC,,>12.5 µg/mL
C=CCn1c(-c2cc3ccccc3oc2=O)cs/c1=N\N=C\c1cc(Br)ccc1O,inhibition,H37Rv,,12.5 µg/mL,83%
COc1ccccc1-c1cnc(N)c(C#N)n1,inhibition,H37Rv,BACTEC,12.5 µg/mL,31%
CO[C@H]1/C=C/O[C@@]2(C)Oc3c(C)c(O)c4c(O)c(c5c(c4c3C2=O)NC2(CCN(CC(C)C)CC2)N=5)=NC(=O)/C(C)=C\C=C\[C@H](C)[C@H](O)[C@@H](C)[C@@H](O)[C@@H](C)[C@H](OC(C)=O)[C@@H]1C,MIC,33 (rifampicin-resistant),,,>2 µg/mL
CCOC(=O)C(=O)Nc1nc2c(s1)C(=O)c1ccccc1C2=O,MIC bound,H37Rv,BACTEC,,≤12.5 µg/mL
O=C(O)c1cn(C2CC2F)c2c(Cl)c(N3CC4CCCNC4C3)c(F)cc2c1=O,MIC,40 (RFP-susceptible),,,0.025 µg/mL
C=CCn1c(-c2cc3cc(Br)ccc3oc2=O)cs/c1=N\N=C\c1ccc(O)c(OCC)c1,MIC,H37Rv,,,>12.5 µg/mL
COc1ccc(CCNCCNC[C@]2(C)CCC[C@]3(C)c4ccc(C(C)C)cc4CC[C@@H]23)cc1,MIC,,,,25 µM
O=C1OCc2c1cc1ccc(O)c(OC3OC(CO)C(O)C(O)C3O)c1c2-c1ccc2c(c1)OCO2,inhibition,H37Rv,BACTEC,12.5 µg/mL,12%
CCOc1cc(/C=N/N=c2\scc(-c3cc4ccccc4oc3=O)n2C2CCCCC2)ccc1O,inhibition,H37Rv,,12.5 µg/mL,98%
Cc1c(NC=O)c(=O)n(-c2ccccc2)n1C,MIC,H37Rv,BACTEC,,≥12.5 µg/mL
CC1CN(c2c(F)cc3c(=O)c(C(=O)O)cn(C4CC4)c3c2F)CCN1,MIC,CSU21,,,0.25 µg/mL
Cc1ccc(Sc2ncccn2)cc1,MIC90,H37Rv,,,>6.25 µg/mL
O=C1c2ccccc2C2=Nc3ccccc3SC12O,MIC,18b,resazurin,,4 µg/mL
CC[C@H]1OC(=O)[C@H](C)[C@@H](O[C@H]2C[C@@](C)(OC)[C@@H](O)[C@H](C)O2)[C@H](C)[C@@H](O[C@@H]2O[C@H](C)C[C@H](N(C)C)[C@H]2O)[C@](C)(OC)C[C@@H](C)C(=O)[C@H](C)[C@@H](O)[C@]1(C)O,MIC,90-0233 (INH SM-RS),,,5 µg/mL
CC(C)c1ccc2c(c1)CC[C@H]1[C@](C)(CNCCNCCc3cccc(F)c3)CCC[C@]21C,MIC,,,,12.5 µM
Cc1c(N2CC3CCCNC3C2)c(F)cc2c(=O)c(C(=O)O)cn([C@@H]3C[C@@H]3F)c12,MIC,Kurono RFP-susceptible,,,0.006 µg/mL
CO[C@H]1/C=C/O[C@@]2(C)Oc3c(C)c(O)c4c(O)c(c5c(c4c3C2=O)NC2(CCN(CC(C)C)CC2)N=5)=NC(=O)/C(C)=C\C=C\[C@H](C)[C@H](O)[C@@H](C)[C@@H](O)[C@@H](C)[C@H](OC(C)=O)[C@@H]1C,MIC,Strain 24,,,≤0.125 µg/mL
COc1cc(SSc2cc(OC)cc([N+](=O)[O-])c2N)c(N)c([N+](=O)[O-])c1,MIC bound,H37Rv,resazurin,,>6.25 µg/mL
NC1CN(c2c(F)cc3c(=O)c(C(=O)O)cn(C4CC4)c3c2Cl)CC12CC2,MIC,43 (RFP-susceptible),,,0.78 µg/mL
CC(C)=CC(=O)O[C@H]1[C@@H]2[C@H](C)C(=O)O[C@@H]2C[C@@H](C)[C@@H]2[C@@H](O)CC(=O)[C@]21C,inhibition,H37Rv,BACTEC,12.8 µg/mL,9%
COc1ccc(/C(O)=C/c2nc3cc(Cl)ccc3oc2=O)cc1,MIC,18b,resazurin,,4 µg/mL
CCCCCCCCCCCNCCNCc1ccco1,MIC,,,,50 µM
CC1(C)CC(=O)C2=C(C1)C1=Nc3ccccc3C1=C2,MIC,18b,resazurin,,8 µg/mL
N[C@@H]1CONC1=O,MIC,92-0492 MDR (INH RIF-resistant),,,50 µg/mL
COc1c(OC(C)=O)cc2c(OC(C)=O)c1CC(C)CC(OC)C(O)C(C)/C=C(\C)C(OC(N)=O)C(OC)/C=C\C=C(/C)C(=O)N2,MIC bound,H37Rv,BACTEC,,>12.5 µg/mL
C[C@H]1COc2c(N3CCN(C)CC3)c(F)cc3c(=O)c(C(=O)O)cn1c23,MIC,Strain 448,,,0.25 µg/mL
CO[C@H]1/C=C/O[C@@]2(C)Oc3c(C)c(O)c4c(O)c(c(/C=N/N5CCN(C6CCCC6)CC5)c(O)c4c3C2=O)NC(=O)/C(C)=C\C=C\[C@H](C)[C@H](O)[C@@H](C)[C@@H](O)[C@@H](C)[C@H](OC(C)=O)[C@@H]1C,MIC,12761,,,0.04 µg/mL
COc1cc(CSc2nc(=O)[nH]c3nc[nH]c23)cc(OC)c1,MIC,H37Ra,,,>12.8 µg/mL
C[C@H]1COc2c(N3CCN(C)CC3)c(F)cc3c(=O)c(C(=O)O)cn1c23,MIC50,27 strains (levofloxacin-susceptible),,,0.39 µg/mL
C=C(C)/C=C/[C@]12C[C@H](C)[C@H]3CC[C@](C)(NC)[C@@H](CC[C@H]1C)[C@@H]32,inhibition,H37Rv,,16 µg/mL,95%
N#Cc1cnn2ccn([C@@H]3O[C@H](CO)[C@@H](O)[C@H]3O)c12,inhibition,H37Rv,BACTEC,12.5 µg/mL,0%
CC1CN(c2c(F)cc3c(=O)c(C(=O)O)cn(C4CC4)c3c2F)CC(C)N1,MIC,CSU22,,,≤0.125 µg/mL
O=C(N/N=C/c1ccc([N+](=O)[O-])cc1)c1ccc(F)cc1,inhibition,H37Rv,,6.25 µg/mL,25%
CC1=CC(=N/Br)/C=CC/1=N\Br,MIC bound,H37Rv,BACTEC,,>12.5 µg/mL
COc1ccccc1CCNCCNCC12CC3CC(CC(C3)C1)C2,MIC,,,,50 µM
NNC(=O)c1ccncc1,MIC,90-0145 (drug-susceptible),,,0.04 µg/mL
CCN1C(=O)C(N2CCCCC2)S/C1=C\C(=O)O,MIC bound,H37Rv,BACTEC,,>12.8 µg/mL
CC(C)N=c1cc2n(-c3ccc(Cl)cc3)c3ccccc3nc-2cc1Nc1ccc(Cl)cc1,MIC,90-0233 (INH SM-RS),,,0.4 µg/mL
COc1ccc(OC)c(CCNCCNC23CC4CC(CC(C4)C2)C3)c1,MIC,,,,25 µM
Fc1ccccc1CNCCNCCc1ccc(Cl)cc1Cl,MIC,,,,50 µM
CC(=O)NC[C@H]1CN(c2ccc(N3CCOCC3)c(F)c2)C(=O)O1,MIC,Strain 325,,,0.25 µg/mL
CCOc1cccc(C(=O)N(Cc2ccccc2)C2CCS(=O)(=O)C2)c1,MIC,18b,resazurin,,4 µg/mL
Cc1ccc(S(=O)(=O)N/N=C/c2oc(-c3cccc([N+](=O)[O-])c3)c(-c3cccc([N+](=O)[O-])c3)c2[N+](=O)[O-])cc1,MIC bound,H37Rv,BACTEC,,>12.5 µg/mL
Cc1c(N2C[C@@H](N)C3(CC3)C2)c(F)c(N)c2c(=O)c(C(=O)O)cn(C3CC3)c12,MIC50,22 strains (rifampin- isoniazid-resistant),,,3.13 µg/mL
COc1ccc(Sc2ncccn2)cc1,MIC90,H37Rv,,,>6.25 µg/mL
O=C(N/N=C/c1ccc(O)cc1)c1ccc(F)cc1,inhibition,H37Rv,,6.25 µg/mL,9%
CCOCCCNCCNCC(c1ccccc1)c1ccccc1,MIC,,,,50 µM
Cc1ccc(N(C(=O)CC(=O)N2N=C(c3ccccc3)C(N=Nc3ccc([N+](=O)[O-])cc3)C2=O)C(=O)c2ccc(Cl)cc2)cc1,MIC bound,H37Rv,BACTEC,,>12.5 µg/mL
Cc1ccccc1CSc1ncnc2nc[nH]c12,MIC,H37Ra,,,>12.8 µg/mL
O=C(N/N=C/c1cccs1)c1ccc(F)cc1,EC50,H37Rv,,,>6.25 µg/mL
O=c1nc(SCc2cccc(Br)c2)c2[nH]cnc2[nH]1,inhibition,H37Rv,,6.25 µg/mL,32%
CN(C)NP(=S)(c1ccccc1)c1ccccc1,MIC bound,H37Rv,BACTEC,,>12.5 µg/mL
CN=C1NC(=O)CC(C(=O)Nc2ccc3ccccc3c2)S1,MIC,Clinical isolate,resazurin,,4 µg/mL
Cc1cccc(N=Nc2c(O)c3cccc([N+](=O)[O-])c3[nH]c2=O)c1,MIC,H37Rv,resazurin,,<6.25 µg/mL
CCn1c(-c2cc3ccccc3oc2=O)cs/c1=N\N=C\c1cc(Br)ccc1O,MIC,H37Rv,,,>12.5 µg/mL
CNC(=O)C1CCCN1C(=O)C(Cl)Cl,inhibition,H37Rv,BACTEC,12.5 µg/mL,8%
O=C(N/N=C/c1ccc[nH]1)c1ccc(F)cc1,inhibition,H37Rv,,6.25 µg/mL,0%
COc1cc2c(c(OC)c1OC)CC1c3c(cc4c(c3-2)OCO4)CCN1C,MIC bound,H37Rv,BACTEC,,>12.5 µg/mL
C[C@H]1COc2c(N3CCN(C)CC3)c(F)cc3c(=O)c(C(=O)O)cn1c23,MIC,CSU12,,,0.25 µg/mL
Cc1cccc(N=Nc2c(O)c3ccc(Cl)c(Cl)c3[nH]c2=O)c1,MIC,H37Rv,resazurin,,<6.25 µg/mL
CCCCCC(C)NCCNC1(C)CN(CC(CC)CCCC)CN(CC(CC)CCCC)C1,MIC,,,,25 µM
N[C@@H]1CN(c2c(F)cc3c(=O)c(C(=O)O)cn([C@@H]4C[C@@H]4F)c3c2Cl)CC12CC2,MIC90,23 strains (rifampin- isoniazid-susceptible),,,0.1 µg/mL
Cc1nc2c([N+](=O)[O-])cc(C(=O)O)cc2[nH]1,MIC bound,H37Rv,resazurin,,>6.25 µg/mL
CCC1CCCCN1CCNCCC(c1ccccc1)c1ccccc1,MIC,,,,25 µM